According to paper PMC6118392, “VapC proteins from Mycobacterium tuberculosis share ribonuclease sequence specificity but differ in regulation and toxicity” (PLoS ONE, 2018):

Tests used:
VapB29 + VapC29 [1] = assay: competition with a labelled probe; settings: unlabelled 25x/50x vs labelled N2; recombinant protein; protein details: C-terminal His; label: 3' DIG-ddUTP
VapB29 + VapC29 [2] = assay: EMSA; settings: recombinant protein; protein details: C-terminal His; label: 3' DIG-ddUTP

Row | Sequence | binding result (VapB29 + VapC29 [1]) | binding result (VapB29 + VapC29 [2])
1 | GGAAAAAATCGGCGCGCGCATCACGATGCAGCGATGTTAGGATGAGGCGG (double strand) [Oligo 5 Bind 2 (Mut. 2)] | binds | binds
2 | GGTGAGCGTCGGCGCGCGCATCACGATGCAGCGATGTTAGGAAAAAAAAG (double strand) [Oligo 5 Bind 4 (Mut. 4)] |  | binds

The exact form of at least one protein or probe is not confirmed. At least one verdict was read from the data and is not stated in words by the source.
